Reference: US20240165214A1, “COMPOSITIONS AND METHODS FOR STABILIZATION OF ALLOSTERIC PROTEINS” (priority 2021, published 2024)

Tested on: mAb21
Assay: mAb21 binding time course to immobilized fimbriae and three-state model

B1: FimH^FocH: recombinant FimH variant with FocH-derived substitution in its pilin domain altering the interdomain interface (protein)
chain: FACKTANGTAIPIGGGSANVYVNLAPVVNVGQNLVVDLSTQIFCHNDYPETITDYVTLQRGSAYGGVLSNFSGTVKYSGSSYPFPTTSETPRVVYNSRTDKPWPVALYLTPVSSAGGVAIKAGSLIAVLILRQTNNYNSDDFQFVWNIYANNDVVVPTGGCDVSARDVTVTLPDYPGSVPIPLTVRCDQTQSVSYTLSGSVADAGNSIFTNTASFSPAQGVGVQLTRNGTIIPANNTVSLGAVGTSAVSLGLTANYARTGGQVTAGNVQSIIGVTFVYQ
For B1, the “time to 50% of the maximal optical density (OD50) of mAb21 binding” value (absence of mannose) was ~40 s, the “mAb21 binding to fimbriae” value (absence of mannose, 1 h) was “recognized well” and the “mAb21 accumulation level in absence of mannose, of level in mannose presence” value (earliest time points) was 70-75%. The “time to 50% of the maximal optical density (OD50) of mAb21 binding” value (presence of mannose) was ~20 s.
